Measured data: PubChem BioAssay AID1259414 (Drosophila RNAi Screening Center, 2018)
In all, the deposit lists about 24,000 reagents; shown is an unselected part of those with a known target gene and a result. Over the whole deposit, about 1,210 (5%) are marked active. 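Inactive calls also include excluded dsRNAs with several or no targets, genes unexpressed in JW18, and well A1, regardless of score.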 Entries without a mark were called inactive. Reagents against one gene are numbered here.

Assay: 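Genome-wide screen for host control of endosymbiont load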 (primary screen)
Cells: Drosophila JW18 cells infected with Wolbachia
Knock-down reagent: long dsRNA against Drosophila genes, 0.25 µg dsRNA per well of a 384-well plate
Timing: 5 days
Treatment: cells persistently infected with Wolbachia before knock-down; no added drug
Measurement: 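Imaged fluorescence in situ signal for Wolbachia 23S rRNA per DAPI-counted host cell, given as a robust z-score within each plate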
Reading the numbers: Wolbachia per cell robust z: higher = more Wolbachia per host cell than the plate typical
Hit rule: 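Hit when robust z is 1.5 or more, or -1.5 or less, in at least two of three replicates; excludes dsRNAs with several or no targets, genes not expressed in JW18 and well A1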

no.	target gene	reagent no.	Wolbachia per cell robust z, rep 1	Wolbachia per cell robust z, rep 2	Wolbachia per cell robust z, rep 3
1	CG13310	1	1.04	1.19	-0.494
2	CG13310	2	0.0179	-0.211	-0.396
3	CG3527	1	0.472	-0.936	0.327
4	CG3527	2	-0.193	1.3	0.889
5	RanGAP	1	-0.673	-0.671	-1.52
6	RanGAP	2	0.669	-0.0546	-0.329
7	mbl	1	0.682	0.983	0.905
8	mbl	2	-1.86 (active)	-1.68	-2.07
9	Dus1	1	1.01	0.0949	-1.34
10	brun	1	0.185	0.00325	1.16

Individual results from above:
mbl #2, Wolbachia per cell robust z, rep 1 = -1.86 (active)
Under “Wolbachia per cell robust z, rep 3”, CG13310 #2 shows -0.396

The listing continues.
no.	target gene	reagent no.	Wolbachia per cell robust z, rep 1	Wolbachia per cell robust z, rep 2	Wolbachia per cell robust z, rep 3
11	CG3704	1	-0.241	-1.24	-1.3
12	CG3704	2	-0.406	-0.679	-0.756
13	CG3704	3	-0.269	-0.561	-0.0343
14	Chc	1	0.703	2.72	-6.83
15	CG12963	1	0.679	0.976	-0.341
16	nompC	1	0.915	0.213	0.268
17	CG4701	1	0.599	-0.72	1.13
18	CG4701	2	0.0153	-0.229	0.927
19	Klp59C	1	-0.601	-4.47	-3.28
20	Klp59C	2	-0.602	0.478	0.81
21	CG30286	1	-0.897	-4.93	0.0173
22	Cpr100A	1	0.198	0.204	1.54
23	Cpr100A	2	0.0902	-0.285	0.485
24	Or10a	1	0.361	-1.18	-0.868
25	Or10a	2	-7.76	-1.28	0.426
26	CG6867	1	0.314	-0.699	0.178
27	CG6867	2	0.68	0.848	0.719
28	LpR1	1	0.181	0.781	0.915
29	LpR1	2	0.943	0.0142	0.359
30	LpR1	3	0.16	-1.73	-0.308
31	LpR1	4	1.03	-0.941	-1.63
